Anti-infective test results gathered from many reports (values: NIAID ChemDB through PubChem).

Shared fields: tests in culture; species: Enterococcus faecium

Blank or dashed fields: not listed here.

| SMILES | strain or isolate | endpoint | result |
|---|---|---|---|
| CC(=O)NC[C@H]1CN(c2ccc(SCCO)c(F)c2)C(=O)O1 | UC12712 (vancomycin-resistant) | MIC | 4 µg/mL |
| CNc1c(F)cc2c(=O)c(C(=O)O)cn(-c3cc(N)c(F)cc3F)c2c1C | W1140 | MIC | 2 µg/mL |
| CC(=O)NC[C@H]1CN(c2ccc(C(=O)N(C)C)c(F)c2)C(=O)O1 | UC12712 (vancomycin-resistant) | MIC | 16 µg/mL |
| CSCC(=O)NC[C@H]1CN(c2ccc(N3CCOCC3)c(F)c2)C(=O)O1 | UC12712 (vancomycin-resistant) | MIC | 32 µg/mL |
| C[C@@H]1CN(c2c(F)c(N)c3c(=O)c(C(=O)O)cn(C4CC4)c3c2F)C[C@H](C)N1 | - | MIC90 | 1–50 µg/mL |
| Cc1c(NCCCO)c(F)cc2c(=O)c(C(=O)O)cn(-c3cc(N)c(F)cc3F)c12 | ATCC51519 | MIC | 8 µg/mL |
| O=C(/C=C/c1ccc(F)cc1)NC[C@H]1CN(c2ccc(N3CCOCC3)c(F)c2)C(=O)O1 | UC12712 (vancomycin-resistant) | MIC | 4 µg/mL |
| CC(=O)NC[C@H]1CN(c2ccc(C(=O)Nc3ccc(Cl)nc3)c(F)c2)C(=O)O1 | UC12712 (vancomycin-resistant) | MIC | 2 µg/mL |
| Cc1c(NC(C)C)c(F)cc2c(=O)c(C(=O)O)cn(-c3cc(N)c(F)cc3F)c12 | W1418 | MIC | 64 µg/mL |
| CC(=O)NC[C@H]1CN(c2ccc(N(C)C(=O)c3ccno3)c(F)c2)C(=O)O1 | UC12712 (vancomycin-resistant) | MIC | 64 µg/mL |
| CC(=O)NC[C@H]1CN(c2ccc(C(=O)Nc3cccnc3)c(F)c2)C(=O)O1 | UC12712 (vancomycin-resistant) | MIC | 8 µg/mL |
| CC(=O)NCC1CN(c2ccc(N3CCN(c4ccccn4)CC3)c(F)c2)C(=O)O1 | UC12712 (vancomycin-resistant) | MIC | 8 µg/mL |
| COCC(=O)Nc1ccc(N2C[C@H](CNC(C)=O)OC2=O)cc1F | UC12712 (vancomycin-resistant) | MIC | 16 µg/mL |
| CC(=O)NCC1CN(c2ccc(N3CCCCC3)c(F)c2)C(=O)O1 | UC12712 (vancomycin-resistant) | MIC | 32 µg/mL |
| CC(=O)NC[C@H]1CN(c2ccc(NC(=O)c3cccnc3)c(F)c2)C(=O)O1 | UC12712 (vancomycin-resistant) | MIC | 32 µg/mL |
| CCOC(=O)C(C)(C)Sc1ccc(N2C[C@H](CNC(C)=O)OC2=O)cc1F | UC12712 (vancomycin-resistant) | MIC | 16 µg/mL |
| CSCC(=O)NC[C@H]1CN(c2ccc(C(=O)Nc3ccc(Cl)nc3)c(F)c2)C(=O)O1 | UC12712 (vancomycin-resistant) | MIC | 4 µg/mL |
| O=C(Nc1ccc(C(F)(F)F)cc1)NN(CC(O)CN1CCOCC1)C(=O)Nc1ccc(C(F)(F)F)cc1 | EF12 (vancomycin-resistant) | MIC | 75 µM |
| CC(=O)NC[C@H]1CN(c2ccc(SCCN3CCOCC3)c(F)c2)C(=O)O1 | UC12712 (vancomycin-resistant) | MIC | 64 µg/mL |
| CC(=O)NC[C@H]1CN(c2ccc(C(=O)Nc3nc4ccccc4s3)c(F)c2)C(=O)O1 | UC12712 (vancomycin-resistant) | MIC | 8 µg/mL |
| O=C(/C=C/c1ccc(Cl)cc1Cl)NC[C@H]1CN(c2ccc(N3CCOCC3)c(F)c2)C(=O)O1 | UC12712 (vancomycin-resistant) | MIC | 4 µg/mL |
| O=C(NNc1ccccn1)Nc1cc(C(F)(F)F)cc(C(F)(F)F)c1 | EF12 (vancomycin-resistant) | MIC | >300 µM |
| CN(C)c1cc(NC(=O)CNC(C)(C)C)c(O)c2c1C[C@H]1C[C@H]3[C@H](N(C)C)C(=O)C(C(N)=O)=C(O)[C@@]3(O)C(=O)C1=C2O | 40 strains (vancomycin-resistant) | MIC90 | 0.12 µg/mL |
| CCN(CC)CCSc1ccc(N2C[C@H](CNC(C)=O)OC2=O)cc1F | UC12712 (vancomycin-resistant) | MIC | >64 µg/mL |
| CC(=O)NC[C@H]1CN(c2ccc3c(c2)OCc2nccn2-3)C(=O)O1 | 27251 | MIC | 1 µg/mL |
| CSc1ccc(C(=O)Nc2ccc(N3C[C@H](CNC(C)=O)OC3=O)cc2F)o1 | UC12712 (vancomycin-resistant) | MIC | 16 µg/mL |
| O=C(CC(=O)Nc1cc(C(F)(F)F)cc(C(F)(F)F)c1)Nc1cccc(C2=NCCN2)c1 | EF12 (vancomycin-resistant) | MIC | 53 µM |
| CNC(=O)CC1NC(=O)c2nc(sc2COC)C(C(C)C)NC(=O)c2csc(n2)-c2ccc(-c3nc(C4=NC(C(=O)N5CCCC5C(N)=O)CO4)cs3)nc2-c2csc(n2)-c2csc(n2)C(C(O)c2ccccc2)NC(=O)CNC(=O)c2nc1sc2C | UC12712 (vancomycin-resistant) | MIC | 4 µg/mL |
| COC(=O)CCn1c(C)nc([N+](=O)[O-])c1Sc1ccc(N2C[C@H](CNC(C)=O)OC2=O)cc1F | UC12712 (vancomycin-resistant) | MIC | >64 µg/mL |
| O=C(Nc1cccc(C2=NCCN2)c1)Nc1cccc(C2=NCCN2)c1 | EF12 (vancomycin-resistant) | MIC | 300 µM |
| CC(=O)NC[C@H]1CN(c2ccc(NC(=O)c3cnccn3)c(F)c2)C(=O)O1 | UC12712 (vancomycin-resistant) | MIC | 8 µg/mL |

3 of the rows above, restated:

SMILES	strain or isolate	endpoint	result
CC(=O)NC[C@H]1CN(c2ccc(C(=O)Nc3cccnc3)c(F)c2)C(=O)O1	UC12712 (vancomycin-resistant)	MIC	8 µg/mL
CC(=O)NC[C@H]1CN(c2ccc(C(=O)Nc3ccc(Cl)nc3)c(F)c2)C(=O)O1	UC12712 (vancomycin-resistant)	MIC	2 µg/mL
CN(C)c1cc(NC(=O)CNC(C)(C)C)c(O)c2c1C[C@H]1C[C@H]3[C@H](N(C)C)C(=O)C(C(N)=O)=C(O)[C@@]3(O)C(=O)C1=C2O	40 strains (vancomycin-resistant)	MIC90	0.12 µg/mL

a–b is a range or a potency band. Neighbouring rows are from separate reports. MIC50, MIC90 and the like: level of inhibition, or share of isolates inhibited.